Measured values from several laboratories, pooled; numbers as filed in NIAID ChemDB.

Shared fields: tests in culture; species: Mycobacterium tuberculosis

An empty or dashed field is not shown. Inhibition is in % at the dose shown (toxicity tests: loss of growth or viability). ECn: concentration that inhibits the pathogen or its effect by n%. MIC bound comes from a single tested concentration. Two numbers with a dash give a range or band. A number after MIC or MFC names an inhibition level or a share of isolates. Rows are shuffled and stem from different studies.

| smiles | endpoint | changes | method | cells | tested at | strain | result |
|---|---|---|---|---|---|---|---|
| CC(=O)c1c(OCC(O)CN(CCO)CCO)ccc2c(C)cc(=O)oc12 | inhibition |  | resazurin |  | 6.25 µg/mL | H37Rv | 20% |
| CCCCCCCCCCN=c1cc2n(-c3ccc(Cl)cc3)c3ccccc3nc-2cc1Nc1ccc(Cl)cc1 | MIC |  |  |  |  | H37Rv | 2 µg/mL |
| COc1ccc(OC)c(-n2cc(Cn3c4ccccc4c4ccccc43)nn2)c1 | MIC |  | agar |  |  | H37Rv | 25 µg/mL |
| O=[n+]1c2ccccc2n([O-])c2ccccc21 | MIC |  |  |  |  | KM-R | 3.1 µg/mL |
| COC(=O)C1=C(C)N(c2ccc(OC)cc2)C(C)=C(C(=O)OC)C1c1ccccc1 | MIC |  |  |  |  | H37Rv | >6.25 µg/mL |
| OC[C@H]1O[C@@H](n2ccc3c(-c4cccs4)nc(F)nc32)C(O)C1O | MIC |  | MTT |  |  | My 331/88 | >250 µM |
| CC(C)c1ccc2c(c1)CCC1[C@@](C)(COC(=O)CC(=O)O)CCC[C@@]21C | MIC |  |  |  |  | H37Rv (ATCC 27294) | 4 µg/mL |
| NNC(=O)c1ccncc1 | MIC |  |  |  |  | 92-0492 (MDR) | 5 µg/mL |
| COC(=O)C1(C(=O)OC)OC(c2ccc(OC)cc2)C2C(=O)N(C)C(=O)C21 | inhibition |  | BACTEC |  | 12.5 µg/mL | H37Rv | 29% |
| COc1cccc(C2C(C(=O)Nc3ccc(F)c(Cl)c3)=C(C)NC(C)=C2C(=O)Nc2ccc(F)c(Cl)c2)c1 | MIC |  |  |  |  | H37Rv | >6.25 µg/mL |
| CC(C)[C@@H](C)/C=C/[C@@H](C)[C@H]1CCC2[C@@]34C=C[C@]5(C[C@@H](O)CC[C@]5(C)C3CC[C@@]21C)OO4 | MIC |  |  |  |  | H37Rv (ATCC 27294) | 2 µg/mL |
| O=C1C=C(Nc2ccccc2N=C2C(N3C4=CCc5ccccc5C4=Nc4ccccc43)=CC(=O)c3ccccc32)C(=O)c2ccccc21 | MIC bound |  | BACTEC |  |  | H37Rv | ≤12.5 µg/mL |
| CC(=O)NNC(=O)c1ccncc1 | MIC |  |  |  |  | H37Rv | 400 µg/mL |
| OC[C@H]1O[C@@H](n2ccc3c(-c4ccco4)nc(Cl)nc32)C(O)C1O | MIC |  | MTT |  |  | My 331/88 | >250 µM |
| COc1cc(Cc2cnc(/N=C3\C(=O)N(CN4CCN(c5cccc(C(F)(F)F)c5)CC4)c4ccc(Br)cc43)nc2N)cc(OC)c1OC | inhibition |  | BACTEC |  | 6.25 µg/mL |  | 31% |
| NNC(=O)c1ccncc1 | MIC |  |  |  |  | 4S | 0.1 µg/mL |
| CC1=C(C(=O)Nc2ccc(F)c(Cl)c2)C(c2cccc(Cl)c2)C(C(=O)Nc2ccc(F)c(Cl)c2)=C(C)N1 | MIC |  |  |  |  | H37Rv | >6.25 µg/mL |
| COc1cc(Cc2cnc(/N=C3\C(=O)N(CN4CCN(C)CC4)c4ccc(Br)cc43)nc2N)cc(OC)c1OC | inhibition |  | BACTEC |  | 6.25 µg/mL |  | 38% |
| COc1ccc(/C=C2/CN(C)C/C(=C\c3ccc(OC)c(OC)c3OC)C2=O)c(OC)c1OC.Cl | MIC bound |  | BACTEC |  |  | H37Rv | >12.5 µg/mL |
| O=C(O)c1cnc2ccccc2c1 | inhibition |  |  |  | 6.25 µg/mL | H37Rv | 74% |
| Cc1nn(C(=O)c2ccncc2)c(C)c1N=Nc1ccc(S(N)(=O)=O)cc1 | inhibition |  | BACTEC |  | 12.5 µg/mL | H37Rv | -19% |
| OC[C@H]1O[C@@H](n2ccc3c(-c4cccs4)nc(Cl)nc32)C(O)C1O | MIC |  | MTT |  |  | My 331/88 | 125 µM |
| COC(=O)c1cc(C2CCCCC2)nc2c(C3CCCCC3)cccc12 | MIC |  |  |  |  | H37Rv | >6.25 µg/mL |
| COC(=O)c1cc(O)c(O)c(O)c1 | MIC |  | resazurin |  |  | ATCC 25177 | 250 µg/mL |
| CC(C)N=c1cc2n(-c3ccc(Cl)cc3)c3ccccc3nc-2cc1Nc1ccc(Cl)cc1 | MIC |  |  |  |  | 90-0233 (isoniazid streptomycin-resistant) | 0.4 µg/mL |
| C[C@@H]1CC[C@@]2(OC1)O[C@H]1C[C@H]3[C@@H]4CC[C@H]5C[C@@H](O)CC[C@]5(C)[C@H]4CC[C@]3(C)[C@H]1[C@@H]2C | inhibition |  | BACTEC |  | 12.8 µg/mL | H37Rv | 2% |
| c1ccc(Cn2cc(Cn3c4ccccc4c4ccccc43)nn2)cc1 | MIC |  | agar |  |  | H37Rv | 50 µg/mL |
| C/C=C/C/C=C/CCC(=O)[C@H]1O[C@H]1C(N)=O | MIC |  |  |  |  | 92-0492 (MDR) | 10 µg/mL |
| C[N+](C)(C)CCOP(=O)([O-])OP(=O)([O-])OCC1CCC(n2ccc(N)nc2=O)O1.[Li+] | MIC bound |  | BACTEC |  |  | H37Rv | >12.5 µg/mL |
| CCN(CC)CN1C(=O)/C(=N\c2ncc(Cc3cc(OC)c(OC)c(OC)c3)c(N)n2)c2cc(Br)ccc21 | inhibition |  | BACTEC |  | 6.25 µg/mL |  | 54% |
| N[C@@H]1CN(c2c(F)cc3c(=O)c(C(=O)O)cn([C@@H]4C[C@@H]4F)c3c2Cl)CC12CC2 | MIC | Gyrase Asp94Tyr | resazurin |  |  | Clinical strain | 0.0625–0.125 µg/mL |
| CC(=O)NC[C@H]1CN(c2ccc(N3CCOCC3)c(F)c2)C(=O)O1 | MIC |  |  |  |  | 4R | 0.5 µg/mL |
| Cc1ccc(Nc2nc(N)[nH]c(=O)c2N=O)cc1Cl | MIC bound |  | BACTEC |  |  | H37Rv | >12.5 µg/mL |
| COC(=O)c1cc2ccccc2nc1C1CCCC1 | inhibition |  |  |  | 6.25 µg/mL | H37Rv | 28% |
| CC(C)=CCC/C(C)=C/CCC1(C)C=Cc2c(c3ccccc3oc2=O)O1 | inhibition |  | BACTEC |  | 12.5 µg/mL | H37Rv | 14% |
| COc1ccc(-c2nc3ncc(Oc4ccc([N+](=O)[O-])cc4)cc3[nH]2)c(O)c1 | MIC80 |  | resazurin / absorbance |  |  | H37Rv | 1.6 µM |
| NC[C@@H]1O[C@H](O[C@H]2[C@@H](O)[C@H](O[C@@H]3[C@@H](O)[C@H](N)C[C@H](N)[C@H]3O[C@H]3O[C@H](CO)[C@@H](O)C[C@H]3N)O[C@@H]2CO)[C@H](N)[C@@H](O)[C@@H]1O[C@H]1O[C@H](CO)[C@@H](O)[C@H](O)[C@@H]1O | EC50 |  |  |  |  | H37Rv (viomycin-resistant) | 25–50 µg/mL |
| COc1cc2c(cc1-n1cc(Cn3c4ccccc4c4ccccc43)nn1)oc1ccccc12 | MIC |  | agar |  |  | H37Rv | 25 µg/mL |
| CSC(=S)NNC(=O)c1cccc(S(=O)(=O)F)c1 | inhibition |  | BACTEC |  | 12.5 µg/mL | H37Rv | 0% |
| Nc1nc(N)c2c(ccc3c2ccn3Cc2cccc([N+](=O)[O-])c2)n1 | EC50 |  | resazurin |  |  | ATCC 2724 | 4.06 µM |
| O=[N+]([O-])c1ccc(Oc2cnc3nc(-c4cccc(Cl)c4)[nH]c3c2)cc1 | MIC80 |  | resazurin / absorbance |  |  | H37Rv | 1.8 µM |
| CC(=O)N[C@H]1[C@H](OC[C@H]2O[C@@H](n3ccc(N)nc3=O)[C@@H](O)[C@@H]2O)O[C@H](CO)[C@@H](O[C@@H]2O[C@H](CO)[C@@H](O)[C@H](O)[C@H]2NC(C)=O)[C@@H]1O | MIC bound |  | resazurin |  |  | H37Rv | >6.25 µg/mL |
| CC1=C(C(=O)Nc2ccc(F)cc2)C(c2cccc(Br)c2)C(C(=O)Nc2ccc(F)cc2)=C(C)N1 | MIC |  |  |  |  | H37Rv | >6.25 µg/mL |
| COc1ccccc1N1CCN(CN2C(=O)/C(=N\c3ncc(Cc4cc(OC)c(OC)c(OC)c4)c(N)n3)c3cc(Br)ccc32)CC1 | inhibition |  | BACTEC |  | 6.25 µg/mL |  | 40% |
| O=[N+]([O-])c1ccc(Cn2cc(Cn3c4ccccc4c4ccccc43)nn2)cc1 | MIC |  | agar |  |  | H37Rv | 50 µg/mL |
| Cc1nc(-c2cccc3c2oc2ccccc23)c2ccn([C@@H]3O[C@H](CO)C(O)C3O)c2n1 | MIC |  | MTT |  |  | My 331/88 | 62.5 µM |
| CC[C@@H](CO)NCCN[C@@H](CC)CO | MIC |  |  |  |  | H37Rv | 1 µg/mL |
| C=C[C@]1(C)CC=C2C(CCC3[C@](C)(C(=O)O)CCC[C@@]23C)C1 | MIC |  |  |  |  | H37Rv (ATCC 27294) | 128 µg/mL |
| Cc1cc(O)c2c(c1)[C@H](O)CCC2=O | MIC |  |  |  |  |  | >530 µg/mL |
| CC1=NC(C)CNC(C)(C)CC(C)=NC(C)CNC(C)(C)C1 | MIC bound |  | resazurin |  |  | H37Rv | >6.25 µg/mL |
| Fc1ccc(-n2cc(Cn3c4ccccc4c4ccccc43)nn2)cc1Cl | MIC |  | agar |  |  | H37Rv | 25 µg/mL |
| CC[C@@H](CO)NCCN[C@@H](CC)CO | MIC |  |  |  |  | 90-0145 (DRUG-SUS) | 1 µg/mL |
| O=C(O)O.O=C1C=C(N2CCN(CCO)CC2)C(=O)c2c(N3CCN(CCO)CC3)cc(N3CCN(CCO)CC3)nc21 | MIC bound |  | BACTEC |  |  | H37Rv | >12.5 µg/mL |
| Clc1ccc(Nc2cc3nc4ccccc4n(-c4ccc(Cl)cc4)c-3cc2=NC2CCCCCC2)cc1 | MIC |  |  |  |  | H37Rv | 0.13 µg/mL |
| Nc1c(C(=O)Nc2ccccc2)[n+]([O-])c2ccccc2[n+]1[O-] | MIC |  |  | VERO |  | H37Rv | 6.25 µg/mL |
| Cc1nc(-c2ccccc2)c2ccn([C@@H]3O[C@H](CO)C(O)C3O)c2n1 | MIC |  | MTT |  |  | My 331/88 | >250 µM |
| Brc1ccc(Cn2cc(Cn3c4ccccc4c4ccccc43)nn2)cc1 | MIC |  | agar |  |  | H37Rv | 25 µg/mL |
| Nc1nc(-c2ccoc2)c2ccn([C@@H]3O[C@H](CO)C(O)C3O)c2n1 | MIC |  | MTT |  |  | My 331/88 | >250 µM |
| CCOC(=O)Cc1ccnc2ccccc12 | MIC |  |  |  |  | H37Rv | >6.25 µg/mL |
| Cc1ccc(C)c(-n2cc(Cn3c4ccccc4c4ccccc43)nn2)c1 | MIC |  | agar |  |  | H37Rv | 50 µg/mL |
| CCOC(=O)Cc1cc(C2CCCCC2)nc2ccccc12 | inhibition |  |  |  | 6.25 µg/mL | H37Rv | 47% |
| COc1cccc(OC)c1-c1nc2ncc(Oc3ccc([N+](=O)[O-])cc3)cc2[nH]1 | MIC80 |  | resazurin / absorbance |  |  | H37Rv | 0.5 µM |
| N#Cc1ccc(Cn2ccc3c4c(N)nc(N)nc4ccc32)cc1 | EC50 |  | resazurin |  |  | ATCC 2724 | 5.88 µM |
| OC[C@H]1O[C@@H](n2ccc3c(-c4cccc5c4oc4ccccc45)nc(F)nc32)C(O)C1O | MIC |  | MTT |  |  | My 331/88 | 32 µM |
| COc1cc(Cc2cnc(/N=C3\C(=O)N(CN4CCCC4)c4ccc(Br)cc43)nc2N)cc(OC)c1OC | inhibition |  | BACTEC |  | 6.25 µg/mL |  | 90% |
| CC(=O)c1sc(Nc2nnc(-c3ccc(-c4nnc(Nc5nc(C)c(C(C)=O)s5)o4)cc3)o2)nc1C | inhibition |  | resazurin |  | 6.25 µg/mL | H37Rv | -12% |
| CCCCN(CCCC)CN1C(=O)/C(=N\c2ncc(Cc3cc(OC)c(OC)c(OC)c3)c(N)n2)c2cc(Br)ccc21 | inhibition |  | BACTEC |  | 6.25 µg/mL |  | 32% |
| Nc1nc(-c2ccco2)c2ccn([C@@H]3O[C@H](CO)C(O)C3O)c2n1 | MIC |  | MTT |  |  | My 331/88 | >250 µM |
| FC(F)(F)Oc1ccc(-n2cc(Cn3c4ccccc4c4ccccc43)nn2)cc1 | MIC |  | agar |  |  | H37Rv | 25 µg/mL |
| COc1ccc(-c2cnc(C(N)=O)c(=O)[nH]2)cc1 | MIC bound |  | BACTEC |  |  | H37Rv | >12.5 µg/mL |
| NNC(=O)c1ccncc1 | MIC |  |  |  |  | H37Rv | 1 µg/mL |
| COc1cc(Cc2cnc(/N=C3\C(=O)N(CN4CCN(c5ccccc5)CC4)c4ccc(Br)cc43)nc2N)cc(OC)c1OC | inhibition |  | BACTEC |  | 6.25 µg/mL |  | 51% |
| CN(C)C1C(=O)C(C(=O)NCNC(CCS(C)=O)C(=O)[O-])=C(O)C2(O)C(=O)C3=C(O)c4c(O)cccc4C(C)(O)C3CC12.[Na+] | MIC bound |  | BACTEC |  |  | H37Rv | >12.5 µg/mL |
| CC(C)CN=c1cc2n(-c3ccc(Cl)cc3)c3ccccc3nc-2cc1Nc1ccc(Cl)cc1 | MIC |  |  |  |  | H37Rv | 0.13 µg/mL |
| C=C[C@]1(C)CC=C2C(CCC3[C@](C)(COC(=O)CC(=O)O)CCC[C@@]23C)C1 | MIC |  |  |  |  | H37Rv (ATCC 27294) | 8 µg/mL |
| Cc1ccccc1-c1nc2ncc(Oc3ccc([N+](=O)[O-])cc3)cc2[nH]1 | MIC80 |  | resazurin / absorbance |  |  | H37Rv | 1.2 µM |
| CCOc1cccc(/C=N/NC(=O)C(N)Cc2ccc(O)cc2)c1O | inhibition |  | BACTEC |  | 12.5 µg/mL | H37Rv | -20% |
| COc1ccc(OC)c(C2C(C(=O)Nc3ccc(F)c(Cl)c3)=C(C)NC(C)=C2C(=O)Nc2ccc(F)c(Cl)c2)c1 | MIC |  |  |  |  | H37Rv | >6.25 µg/mL |
| CC(C)(C)OC(=O)N1CCCC1C(=O)N1CCCC1C(=O)Oc1ccccc1 | MIC bound |  | BACTEC |  |  | H37Rv | >12.5 µg/mL |
| Cc1cc(O)c2c(c1)C(=O)C=C(c1c(C)cc(O)c3c1C(=O)C=CC3=O)C2=O | MIC |  |  |  |  |  | 10 µg/mL |